# PubChem BioAssay AID651958 (The Scripps Research Institute Molecular Screening Center, 2012)
# This is a selection; strong and weak results do not stand in their true shares. Calls of active or inactive are those of the source. No stated cut-off is given here; in the data, active means inhibition above about 30%; inactive means the rest.
# Test system: Crimean-Congo hemorrhagic fever virus L polyprotein viral ovarian tumor (vOTU) protease domain
# Test: CCHFV vOTU protease inhibitors, primary screen, biochemical, Pep-AMC substrate, fluorescence (AID 651958); further: 0% = vehicle wells with enzyme and 100% = no enzyme wells
# Conditions: at 11.5 µM, hits give high values
row,SMILES,inhibition
1,COC(=O)C1(C)COP(=O)(N2CCCC2)OC1 (centres undefined),inactive: 7.95%
2,CCC(C)N(CC(C)C)C(=S)SC(NC(C)=O)C(Cl)(Cl)Cl (centres undefined),inactive: -2.19%
3,CCOC(=O)c1ccc(NC(=O)C(C)(CCl)SC)cc1 (centres undefined),inactive: -2.76%
4,O=C(OC1CN2CCC1CC2)c1cccc([N+](=O)[O-])c1 (centres undefined),inactive: 16.9%
5,COc1ccc2nc(NP(=O)(c3ccccc3)c3ccccc3)sc2c1,inactive: 3.18%
6,COc1cc(I)ccc1[As](=O)(O)O,inactive: 2.53%
7,O=P1(N(CCCl)CCCl)OCCCN1CCCl (centres undefined),inactive: -6.88%
8,O=P1(N(CCCl)CCCl)Nc2ccccc2N1,inactive: 17.7%
9,O=C(OC1CN2CCC1CC2)C12CC3CC(CC(C3)C1)C2 (centres undefined),inactive: 9.33%
10,Cc1cc(=O)[nH]c(N[N+](=O)[O-])n1,inactive: -10.3%
11,Cc1c2c(nc3ccccc13)SC(C(Cl)Cl)C2 (centres undefined),inactive: -9.68%
12,COc1ccc(N/C(=N/P(=O)(N2CCOCC2)N2CCOCC2)N2CCOCC2)cc1,inactive: 6.57%
13,O=[N+]([O-])c1cc(Oc2ccc([N+](=O)[O-])cc2C(F)(F)F)cc([N+](=O)[O-])c1,inactive: -15.1%
14,Cc1ccc2nc3c(c(C)c2c1)CC(C(Cl)Cl)S3 (centres undefined),inactive: 5.96%
15,Cc1ccc(OP(=O)(Nc2ccc([N+](=O)[O-])cn2)Oc2ccc(C)cc2)cc1,inactive: -17.1%
16,[N-]=[N+]=NC1CCCCC1NC(=O)c1cc([N+](=O)[O-])cc([N+](=O)[O-])c1 (centres undefined),inactive: -2.91%
17,C[As](=O)(O)c1cccc(C(=O)O)c1,inactive: -2.97%
18,O=[As](O)(c1ccc(O)cc1)c1ccccc1O,inactive: -7.02%
19,COc1cc(C(=O)NCC2(N3CCOCC3)CCCCC2)ccc1OCC(C)C,inactive: -8.83%
20,O=[N+]([O-])c1ccc(-c2cc([N+](=O)[O-])c(O)c([N+](=O)[O-])c2)cc1,inactive: 9.76%
21,CCN(CC)C(=S)SC(NC=O)C(Cl)(Cl)Cl (centres undefined),inactive: 5.43%
22,O=C(OC1CN2CCC1CC2)c1cccc2[nH]cnc12 (centres undefined),inactive: 5.04%
23,CC(C)NC(=O)NP(=O)(Oc1ccccc1)Oc1ccccc1,inactive: 5.65%
24,CC(C)c1ccc(OP(=O)(Nc2ccccn2)Oc2ccccc2F)cc1 (centres undefined),inactive: 2.35%
25,COC(=O)C1(C)COP(=O)(N2CCCCCC2)OC1 (centres undefined),inactive: 9.21%

row,SMILES,inhibition
1,ClCCSc1nnc(-c2cccnc2)o1,inactive: -11.9%
2,O=C(O)COc1ccc([As](=O)(O)O)cc1[N+](=O)[O-],inactive: 4.43%
3,Nc1ccccc1[As](=O)(O)c1ccccc1,inactive: 3.49%
4,CCOP1(=S)c2c(C)nn(CCC#N)c2N=C(c2ccccc2F)N1C (centres undefined),inactive: 7.71%
5,O=P(Nc1nccs1)(Oc1ccccc1)Oc1ccccc1,inactive: 4.63%
6,CN(C)C(=O)c1cc([N+](=O)[O-])cc2c1-c1c(cc([N+](=O)[O-])cc1[N+](=O)[O-])C2=O,inactive: -5.25%
7,O=[N+]([O-])c1ccc2c(c1)nnn2O,inactive: 6.9%
8,CN(C(=O)Cc1ccc(Cl)c(Cl)c1)[C@H]1CC[C@@]2(CCCO2)C[C@@H]1N1CCCC1,inactive: -5.18%
9,N#CCCN(C(=O)COC(=O)C(O)(c1ccccc1)c1ccccc1)c1ccc(F)cc1,inactive: -5.59%
10,CN(C(=O)Cc1ccccc1)[C@@H]1CC[C@]2(CCCO2)C[C@H]1N1CCCC1,inactive: -2.48%
11,CCOP1(=S)c2c(C)nn(CCC#N)c2N=C(c2ccc(F)cc2)N1C (centres undefined),inactive: -11.2%
12,NC(=O)Nc1ccc([As](=O)(O)O)cc1,inactive: -8.1%
13,O=[As](O)(c1cccc(O)c1)c1cccc(O)c1,inactive: 0.97%
14,Cc1cccc(OCC(=O)OC2CN3CCC2CC3)c1 (centres undefined),inactive: 3.77%
15,COc1cc(C(=O)NCC2(N3CCOCC3)CCCCC2)cc(Cl)c1OC(C)C,inactive: 11%
16,O=[As](O)(O)c1cccnc1,inactive: -0.92%
17,CS(=O)(=O)c1ccc(Cl)c(NC(=O)COC(=O)C(O)(c2ccccc2)c2ccccc2)c1,inactive: -8.46%
18,O=C(OC1CN2CCC1CC2)c1ccc(Cl)cc1 (centres undefined),inactive: -1.19%
19,COc1cc(C2NCCC3(OCCO3)C2(C)C)cc(OC)c1OC (centres undefined),inactive: -20.8%
20,CCOP(=O)(Nc1cccc2ccccc12)OCC,inactive: 2.86%
21,CCCOP(=S)(Nc1nc(N)cc(=O)[nH]1)OCCC,inactive: 26.9%
22,Cc1ccc(NCCc2c([N+](=O)[O-])cc([N+](=O)[O-])cc2[N+](=O)[O-])cc1,inactive: 8.35%
23,Nc1cccc2c([As](=O)(O)O)cccc12,active: 57.5%
24,Clc1n[nH]nc1-c1nn[nH][15n]1,inactive: 3.28%
25,O=P1(N(CCCl)CCCl)NCCC(C(F)(F)F)O1 (centres undefined),inactive: -1.69%

row,SMILES,inhibition
1,CC(C)(C)C(=O)NC(Sc1ncccn1)C(Cl)(Cl)Cl (centres undefined),inactive: 11.6%
2,CN(CCCl)Cc1cc(Cl)c(NC2=NCCN2)c(Cl)c1,inactive: 0.03%
3,CCOP(=O)(Nc1ccc(C)cn1)OCC,inactive: -17.3%
4,CCC1=CC2Cc3nc4ccc(Cl)cc4c(N)c3C(C1)C2 (centres undefined),inactive: 9.44%
5,O=P1(Nc2ccccn2)COc2ccccc2OC1,inactive: 9.69%
6,CCOP(=O)(NC(=NC(C)c1ccccc1)NC(C)c1ccccc1)OCC (centres undefined),inactive: 4.68%
7,CC1(CBr)Cn2c(nc3ccccc3c2=O)S1 (centres undefined),inactive: 3.9%
8,CN(C(=O)Cc1ccc(Cl)c(Cl)c1)[C@@H]1CCCC[C@H]1N1CCCC1,inactive: 0.56%
9,CC(C)/C=N\N=C(\N)N[N+](=O)[O-],inactive: -2.45%
10,CN(C(=O)Cc1ccc(Cl)c(Cl)c1)C1CCCC[C@@H]1N1CCCC1 (some centres undefined),inactive: 2.47%
11,COc1ccccc1CNC(=O)COC(=O)C(O)(c1ccccc1)c1ccccc1,inactive: 19.7%
12,O=C(/C=C/c1ccccc1)OC1CN2CCC1CC2 (centres undefined),inactive: -7.12%
13,CCCC1OP(=O)(Nc2ccccc2)OCC1CC (centres undefined),inactive: 9.6%
14,CN(C)C1(CNC(=O)c2ccc(S(C)(=O)=O)cc2)CCCCC1,inactive: 7.08%
15,Cc1nn(-c2ccccc2)c2c1P(=O)(N1CCOCC1)N(C)C(c1ccccc1)=N2 (centres undefined),inactive: -13%
16,Cc1ccc(C(=O)OC2CN3CCC2CC3)cc1 (centres undefined),inactive: -6.79%
17,CC1CCC(C(C)C)C(OP(=O)(Nc2ccccn2)c2ccccc2)C1 (centres undefined),inactive: 17.6%
18,NS(=O)(=O)c1cccc(NC(=O)COC(=O)C(O)(c2ccccc2)c2ccccc2)c1,inactive: 5.14%
19,O=P1(Nc2ccc(Br)cn2)COc2ccccc2OC1,inactive: -3.46%
20,Cc1ccc(OCC(=O)OC2CN3CCC2CC3)cc1 (centres undefined),inactive: 10%
21,O=[As](O)(c1cccs1)c1cccs1,inactive: -6.4%
22,Nc1cccc([As](=O)(O)c2ccccc2)c1,inactive: 3.17%
23,O=P1(Nc2ncccn2)COc2ccccc2OC1,inactive: 8.91%
24,Cc1ccc(S(=O)(=O)N(CCCN)CCCc2c(C)nc(N)[nH]c2=O)cc1,inactive: 2.27%
